Experimental data as given in PMC9631343 (ACS Bio & Med Chem Au, 2022).
pEC50: −log10 of the molar value. “And” between values parts separate entries of the source, which are not always exact repeats. Identical values can stand only once.

Target: SARS-CoV-2 RdRp (nsp12/7/8 complex) (Severe acute respiratory syndrome coronavirus 2, UniProt P0DTD1, P4715L)
Assay: cell-based
Conditions: inhibition of SARS-CoV-2 RdRp in vitro (EC50) Nsp12

Q: How did the pEC50 turn out when `O=c1[nH]cnc2c([C@@H]3N[C@H](CO)[C@@H](O)[C@H]3O)c[nH]c12` [forodesine] was run?
A: ~6.70 and 6.70
